Compound potency records, mixed from different reports. Data source: NIAID ChemDB in PubChem.

Common to all: growth or infection tests; organism: Hepatitis B virus; endpoint: EC50

Blank or dashed fields: not listed here.

compound	cell line	strain or isolate	value
OC[C@@H]1[C@@H](O)[C@H](O)[C@@H](O)CN1CCCCC1CCCCC1	HepG2 2.2.15		30 µM
Cc1cn([C@@H]2C[C@@H](N=[N+]=[N-])[C@H](CO)O2)c(=O)[nH]c1=O	2.2.15		>10 µM
Nc1nc(=O)n([C@@H]2CC[C@H](CO)O2)cc1F	2.2.15		0.01 µM
CCC(C)CCC[C@H](C)CCN1C[C@H](O)[C@@H](O)[C@H](O)[C@H]1CO	HepG2 2.2.15		30–100 µM
Nc1nc2c(ncn2[C@@H]2C=C[C@H](CO)CC2)c(=O)[nH]1	HepAD38		6 µg/mL
Cc1cn([C@@H]2C[C@@H](N)[C@H](CO)O2)c(=O)[nH]c1=O	HepG2.2.15		>10 µM
Nc1nc(=O)c2ncn([C@H]3O[C@@H](CO)[C@H](O)[C@@H]3O)c2c(=O)[nH]1	2.2.15		0.17 µM
C=C1[C@@H](CO)[C@H](O)C[C@H]1n1cnc2c(N)[nH]c(=O)nc21	HepG2.2.15		100 µM
O=c1ccn([C@@H]2O[C@@H](CO)C[C@H]2F)c(=O)[nH]1	2.2.15		>10 µM
C[C@@H]1O[C@@H](O[C@H]2[C@H](O)[C@@H](O)[C@H](O[C@H]3CC[C@]4(C)[C@H]5C=C[C@]67OC[C@@]8(CCC(C)(C)C[C@H]86)[C@@H](O)C[C@@]7(C)[C@]5(C)CC[C@H]4C3(C)C)O[C@@H]2CO[C@@H]2O[C@H](CO)[C@@H](O)[C@H](O)[C@H]2O)[C@H](O)[C@H](O)[C@H]1O	HepG2.2.15		13.4 µg/mL
Nc1nc(=O)n([C@@H]2C[C@@H](F)[C@H](CO)O2)cc1F	HepG2.2.15		4 µM
Cc1cn([C@@H]2C[C@@H](N)[C@H](CO)O2)c(=O)[nH]c1=O	2.2.15		>10 µM
CC1(C)C2CCC(N3C[C@H](O)[C@@H](O)[C@H](O)[C@H]3CO)C1C2	HepG2 2.2.15		>100 µM
O=C(C=Cc1ccc(O)c(O)c1)O[C@@H]1C[C@](O)(C(=O)O)C[C@@H](O)[C@H]1O	HepG2.2.15		>1380 µM
Nc1nc2c(ncn2[C@H]2O[C@@H](CO)C[C@@H]2F)c(=O)[nH]1	2.2.15		>10 µM
Nc1ccn([C@@H]2CC[C@H](CO)S2)c(=O)n1	2.2.15		>0.5 µM
O=c1ccn([C@@H]2O[C@H](CO)C[C@@H]2F)c(=O)[nH]1	2.2.15		>10 µM
Nc1nc(=O)n([C@@H]2CC[C@H](CO)O2)cc1F	2.2.15		10 µM
Nc1ccn([C@H]2CC[C@@H](CO)O2)c(=O)n1	HB611		0.76 µg/mL
COc1ccc(Sc2nc(N)nc3c2ncn3CCOCP(=O)(OCC(F)(F)F)OCC(F)(F)F)cc1			<0.064 µM
Nc1nc(=O)n([C@@H]2CC[C@H](CO)O2)cc1Cl	2.2.15		10 µM
Nc1ccn([C@H]2O[C@@H](CO)C=C2F)c(=O)n1	HepAD38	RTM204	<0.74 µM
O=c1[nH]c(=O)n([C@H]2O[C@@H](CO)C[C@H]2F)cc1Br	2.2.15		>50 µM
COC(=O)[C@H](C)NP(=O)(OC[C@@H]1CC[C@H](n2cnc3c(N)ncnc32)C1)Oc1ccccc1	HepG2 2.2.15		5 µM
CC(C)(C)CCCCCCCN1C[C@H](O)[C@@H](O)[C@H](O)[C@H]1CO	HepG2 2.2.15		30 µM
Nc1nc(=O)n([C@@H]2C=C(F)[C@H](CO)O2)cc1F	HEPAD79	RTM204	<3.1 µM
Nc1ccn([C@@H]2C[C@@H](O)[C@H](CO)O2)c(=O)n1	2.2.15		0.24 µM
Cc1c(C(=O)O)cc2ccc3c(c2c1-c1ccc2c(c1)OCO2)OCO3	HepG2		>10 µM
Nc1nc2c(ncn2[C@@H]2C[C@H](CO)[C@@H](O)C2)c(=O)[nH]1	HepG2 2.2.15		0.05 µM
Nc1ccn([C@@H]2CC[C@H](CO)O2)c(=O)n1	2.2.15		0.1 µM
CC(C)(C)C(=O)SCCOP(=O)(OCCSC(=O)C(C)(C)C)OC[C@H]1CC[C@@H](n2cnc3c(N)ncnc32)O1	HepG2.2.15		0.08 µM
Nc1ccn([C@@H]2CS[C@H](CO)O2)c(=O)n1	Huh7	Mutations L528M M552V	>80 µM
[N-]=[N+]=N[C@@H]1C[C@@H](n2cc(F)c(N)nc2=O)O[C@H]1CO	HepG2.2.15		0.11 µM
Nc1ncnc2c1ncn2[C@H]1CC[C@@H](CO)O1	HB611		100 µM
Nc1nc(=O)n([C@@H]2C=C[C@H](CO)O2)cc1F	HepAD38	RTM204	<0.05 µM
Nc1nc(N)c2ncn(CCOCP(=O)(O)O)c2n1	HB611		0.02 µg/mL
CO[C@@H]1[C@H](OP(O)(=S)OC[C@H]2O[C@@H](n3cnc4c(N)ncnc43)C[C@@H]2O)[C@@H](CO)O[C@H]1n1ccc(=O)[nH]c1=O	HepG2.2.15		0.213 µM
Nc1ncnc2c1ncn2CCOCP(=O)(O)O	HEPAD79		0.14 µg/mL
Nc1nc(=O)n([C@@H]2CC[C@H](CO)O2)cc1F	2.2.15		0.1 µM
Nc1nc(=O)n(C=C=CCO)cc1F	2.2.15		62 µM
Nc1ccn([C@H]2O[C@@H](CO)C[C@H]2F)c(=O)n1	2.2.15		4 µM
O=c1[nH]c(=O)n([C@@H]2O[C@H](CO)[C@@H](O)[C@@H]2F)cc1I	HepG2 2.2.15		10 µM
COc1ccccc1/C(Br)=C(\NC(=O)c1ccc([N+](=O)[O-])cc1)C(=O)N1CCCCC1			2.4 µM
Nc1ncnc2c1ncn2CCOCP(=O)(O)O	HepG2	Mutations L526M M550V	0.16 µM
Nc1ccn([C@@H]2CS[C@H](CO)O2)c(=O)n1	2.2.15		0.05 µM
Cc1cn([C@@H]2C[C@@H](N)[C@H](CO)O2)c(=O)[nH]c1=O	2.2.15		>10 µM
Cc1cn([C@@H]2C[C@@H](O)[C@H](CO)O2)c(=O)[nH]c1=O	HepG2.2.15		0.19 µM
Nc1ccn([C@H]2CC[C@@H](CO)O2)c(=O)n1	2.2.15		1.4 µM
O=c1[nH]c(=O)n([C@H]2O[C@@H](CO)C[C@H]2F)cc1I	2.2.15		>50 µM
Nc1ncnc2c1ncn2[C@@H]1C[C@@H](O)[C@H](CO)O1	2.2.15		0.1 µM
Nc1ncnc2c1ncn2[C@@H]1C[C@@H](O)[C@H](CO)O1	HepG2.2.15		0.1–1.9 µM
Nc1ccn([C@@H]2C[C@@H](O)[C@H](CO)O2)c(=O)n1	2.2.15		0.24 µM
Nc1ncnc2c1ncn2[C@@H]1C[C@@H](N)[C@H](CO)O1	HepG2.2.15		>10 µM
Nc1ccn([C@@H]2C=C(F)[C@H](CO)O2)c(=O)n1	HepAD38	RTM204	<0.22 µM
Cc1cn([C@@H]2C[C@H](O)[C@H](CO)O2)c(=O)[nH]c1=O	2.2.15		>10 µM
Nc1nc(=O)n([C@@H]2C[C@@H](O)[C@H](CO)O2)cc1F	2.2.15		5 µM
NC(=O)c1cn([C@H]2CC[C@@H](CO)C2)c2ncnc(N)c12			0.7 µM
Nc1nc2c(ncn2C=C2CC2CO)c(=O)[nH]1	HepAD38		>100 µg/mL
Nc1nc2c(ncn2COCCO)c(=O)[nH]1	HepG2 2.2.15		>100 µM
Nc1ccn([C@@H]2C=C[C@H](CO)O2)c(=O)n1	HepG2.2.15		<0.1 µM
Nc1nc(=O)n([C@@H]2CC[C@H](CO)O2)cc1Cl	2.2.15		10 µM
Cc1cn([C@H]2C=C[C@@H](CO)O2)c(=O)[nH]c1=O	HB611		44.7 µg/mL
C[C@H](Cn1cnc2c(N)ncnc21)OCP(=O)(O)O	HEPAD79		0.05 µg/mL
Nc1ccn([C@H]2CC[C@H](CO)S2)c(=O)n1	2.2.15		>0.5 µM
[N-]=[N+]=N[C@@H]1C[C@@H](n2cc(F)c(N)nc2=O)O[C@H]1CO	2.2.15		0.11 µM
Cc1cn([C@@H]2C[C@H](O)[C@H](CO)O2)c(=O)[nH]c1=O	HepG2.2.15		>10 µM
Nc1nc2c(ncn2[C@H]2CC[C@@H](CO)O2)c(=O)[nH]1	HepG2 2.2.15		10 µM
Nc1nc(=O)n([C@@H]2CS[C@H](CO)O2)cc1F	Hep2.2.15		0.038 µM
Nc1nc2c(ncn2[C@@H]2C[C@H](CO)[C@H]2CO)c(=O)[nH]1	HepG2 2.2.15		2.5 µM
Nc1ccn([C@@H]2CS[C@H](CO)O2)c(=O)n1	HepG2 2.2.15		0.006 µM
Nc1ccn([C@@H]2C=C(F)[C@H](CO)O2)c(=O)n1	HepG2 2.2.15		0.002 µM
CCCOCCCCCCN1C[C@H](O)[C@@H](O)[C@H](O)[C@H]1CO	HepG2 2.2.15		100 µM
CCCCCCC(=O)CCCCCC/C=C/CC(O)C(O)C(N)(CO)C(=O)O			5 µM
Nc1ccn([C@H]2CC[C@@H](CO)O2)c(=O)n1			2.8 µM

Two numbers with a dash give a range or band. ECn: concentration that inhibits the pathogen or its effect by n%. Conditions beyond the fields shown may differ between rows.